As a reminder, the inhibition is the drop in the measured response relative to a control, in per cent.

Molecules are shown by their SMILES. The list shows a part of the results, in another mix than the full data. Activity calls are given as the source filed them. Rule as the data show it: active = inhibition above about 25% (passing the limit was not always enough); inactive = the rest.

The test relates to replicative DNA helicase (DnaC/DnaB), Staphylococcus aureus. The test is described as follows: S. aureus DnaC helicase unwinding inhibition – biochemical, fluorescence unwinding readout, primary screen (AID 485395).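 Also: 0% = mean of negative control wells and 100% = mean of positive control wells.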 The note with it: purified S. aureus helicase, fluorescence unwinding assay; active compounds read high; concentration not given here.
As for `CC(=O)OC1(C#N)CN2CCC1CC2` (stereo unspecified), the inhibition was inactive: 8%. Take `Nc1nonc1OCc1nonc1COc1nonc1N`: the inhibition was inactive: 39%. On to `C=CCN1CCN(CCOC(=O)C(O)(c2ccccc2)c2ccccc2)CC1`, for which the inhibition is inactive: -7%. For `Cc1ccccc1NP(C)(=O)Nc1ccccc1C`, the inhibition was inactive: 25%.

Consider `CC(=O)OC1CN2CCC1C(c1ccccc1)C2` (stereo unspecified), for which the inhibition is inactive: -2%. With `O=P(Nc1nccs1)(c1ccccc1)c1ccccc1` the figure was inactive: -6%; with `O=C(OCCN1CCN(CCOCc2ccccc2)CC1)C(O)(c1ccccc1)c1ccccc1`, inactive: -4%. With `O=P1(Nc2nncs2)C=C(c2ccccc2)SC(c2ccccc2)=C1`, the inhibition was inactive: -5%. With `Cc1cc(NC2=NC3C(C(=O)N(C)C(=O)N3C)N2C)n(-c2ccccc2)n1` (stereo unspecified) the figure was inactive: -12%; with `O=P1(Nc2nc3ccc(Cl)cc3s2)COc2ccccc2O1` (stereo unspecified), inactive: 9%. On to `CC1CCC(C(C)C)C(OP(=O)(Nc2nccs2)c2ccccc2)C1` (stereo unspecified), for which the inhibition is inactive: -4%. With `COC(=O)c1cc2c(s1)N=C(c1ccccc1)N(C)P2(=O)N1CCOCC1` (stereo unspecified) the figure was inactive: -13%.

Consider `COc1cc2c(cc1NP(C)(=O)Oc1ccccc1)oc1ccccc12` (stereo unspecified), for which the inhibition is inactive: 1%. With `O=C(OCC1CN(Cc2ccccc2)CCO1)C(O)(c1ccccc1)c1ccccc1` (stereo unspecified) the figure was inactive: 7%.

As to `CCOP(=Nc1nc2ccccc2n2nnnc12)(OCC)OCC`, the inhibition is inactive: 3%. For `O=C(COC(=O)C(O)(c1ccccc1)c1ccccc1)N1CCCCC1`, the inhibition was inactive: 15%.

In the case of `CP(=O)(Nc1ccccn1)Oc1ccccc1` (stereo unspecified), the inhibition was inactive: 9%. As for `CCOP(OCC)N1CCOCC1`, the inhibition was inactive: -2%. With `CP(=O)(Nc1ccc(Cl)cc1)Oc1ccc(F)cc1` (stereo unspecified) the figure was inactive: 1%; with `CCc1ccc(OP(C)(=O)Nc2cccnc2)cc1` (stereo unspecified), inactive: 3%; with `CCc1nc2c(n1)c1c(non1O)c1c2no[n+]1[O-]`, inactive: -2%. With `CCN1C(=O)N(c2ccccc2)P(=S)(OC)c2cc3c(cc21)OCCO3` (stereo unspecified) the figure was inactive: -11%; with `COc1ccccc1OP(C)(=O)Nc1ccccc1` (stereo unspecified), inactive: -5%; with `CP(=O)(Nc1ccc(Cl)cc1)Oc1ccccc1` (stereo unspecified), inactive: 0%. The value for `O=C(O)CCC(=O)N=S(c1ccccc1)c1ccccc1.O=[N+]([O-])c1cc([N+](=O)[O-])c(O)c([N+](=O)[O-])c1` was inactive: -17%; that for `CCn1cccc/c1=N\P1(=S)OCCO1` was inactive: 17%; that for `Cc1cccc(NP(C)(=O)Oc2ccccc2)c1` (stereo unspecified) was inactive: 12%. Consider `CCOC(=O)c1ccc(NP(C)(=O)Oc2ccc(OC)cc2)cc1` (stereo unspecified), for which the inhibition is inactive: -3%. On to `CP(=O)(NC(=O)Nc1ccccc1)Oc1ccccc1` (stereo unspecified), for which the inhibition was inactive: -12%. With `COP1(=S)c2c(C)nn(-c3ccccc3)c2N=C(c2ccccc2)N1C1CC1` (stereo unspecified) the figure was inactive: 12%.

On to `O=C(OC1CN2CCC1CC2)C12CC3CC(CC(C3)C1)C2` (stereo unspecified), for which the inhibition is inactive: 3%. With `O=P1(Nc2nccs2)CC=CC1` the figure was inactive: -6%; with `CN(C)P1(=O)Nc2ccccc2S1` (stereo unspecified), inactive: 15%. The value for `COP1(=S)N=C2c3ccccc3CN2c2cc(N(C)C)ccc21` (stereo unspecified) was inactive: 7%; that for `Nc1nonc1OCCOc1nonc1N` was inactive: 2%; that for `Cc1cc(C)cc(OP(C)(=O)NCc2ccccc2)c1` (stereo unspecified) was inactive: 3%. The value for `O=C(O)C1(O)c2ccccc2-c2ccccc21` was inactive: 12%; that for `CC1=Nc2ccc(C(F)(F)F)cc2C1(C)C` was inactive: -11%. For the compound `CCOP1(=S)c2c(C)nn(CCC#N)c2N=C(c2ccc(F)cc2)N1C` (stereo unspecified), the inhibition was inactive: 7%. As for `O=P1(Nc2nc3ccc(Cl)cc3s2)COc2ccccc2OC1`, the inhibition was inactive: 25%. On to `NC(=O)COC(=O)C1(O)c2ccccc2-c2ccccc21`, for which the inhibition was inactive: 4%. The value for `COc1cc(-n2cnnn2)ccc1-n1cnnn1` was inactive: 10%; that for `Cc1cccc(OCC(=O)OC2CN3CCC2CC3)c1` (stereo unspecified) was inactive: 11%.

Regarding `Nc1nonc1-c1no[n+]([O-])c1-c1nonc1N`, the inhibition was inactive: 15%. As for `O=P1(Nc2ccccn2)COc2ccccc2OC1`, the inhibition is inactive: 8%. The value for `CC1(C)COP(=S)(N(C2=NCCC2)c2ccccc2)OC1` was inactive: 19%. The value for `CCSP(=O)(c1ccccc1)c1ccccc1` was inactive: -11%; that for `Cc1cc(C)cc(OP(C)(=O)Nc2ccc(OC(C)C)cc2)c1` (stereo unspecified) was inactive: 6%. The value for `CP(=O)(N1CCOCC1)N1CCOCC1` was inactive: -5%; that for `Cc1nn(CCC#N)c2c1P(=O)(Nc1ccccc1Cl)N(C)C(c1ccc(F)cc1)=N2` (stereo unspecified) was inactive: -5%. Consider `Cc1nn(-c2ccccc2)c2c1P(=O)(N1CCOCC1)N(C)C(c1ccccc1)=N2` (stereo unspecified), for which the inhibition is inactive: 7%.

These data come from PubChem BioAssay AID485395 (ICCB-Longwood Screening Facility, Harvard Medical School, 2010).
